# Measurements from paper PMC4379099 (PLoS Pathogens, 2015).
# Key:
# [1] = molecular target: T1, EFR::XA21::GFP chimeric receptor (EFR ectodomain 1-649 fused to XA21 651-1025, carboxyl-terminal GFP, transgenic rice) (Arabidopsis | rice (Oryza longistaminata)) (UniProt C0LGT6)
# T1 sequence: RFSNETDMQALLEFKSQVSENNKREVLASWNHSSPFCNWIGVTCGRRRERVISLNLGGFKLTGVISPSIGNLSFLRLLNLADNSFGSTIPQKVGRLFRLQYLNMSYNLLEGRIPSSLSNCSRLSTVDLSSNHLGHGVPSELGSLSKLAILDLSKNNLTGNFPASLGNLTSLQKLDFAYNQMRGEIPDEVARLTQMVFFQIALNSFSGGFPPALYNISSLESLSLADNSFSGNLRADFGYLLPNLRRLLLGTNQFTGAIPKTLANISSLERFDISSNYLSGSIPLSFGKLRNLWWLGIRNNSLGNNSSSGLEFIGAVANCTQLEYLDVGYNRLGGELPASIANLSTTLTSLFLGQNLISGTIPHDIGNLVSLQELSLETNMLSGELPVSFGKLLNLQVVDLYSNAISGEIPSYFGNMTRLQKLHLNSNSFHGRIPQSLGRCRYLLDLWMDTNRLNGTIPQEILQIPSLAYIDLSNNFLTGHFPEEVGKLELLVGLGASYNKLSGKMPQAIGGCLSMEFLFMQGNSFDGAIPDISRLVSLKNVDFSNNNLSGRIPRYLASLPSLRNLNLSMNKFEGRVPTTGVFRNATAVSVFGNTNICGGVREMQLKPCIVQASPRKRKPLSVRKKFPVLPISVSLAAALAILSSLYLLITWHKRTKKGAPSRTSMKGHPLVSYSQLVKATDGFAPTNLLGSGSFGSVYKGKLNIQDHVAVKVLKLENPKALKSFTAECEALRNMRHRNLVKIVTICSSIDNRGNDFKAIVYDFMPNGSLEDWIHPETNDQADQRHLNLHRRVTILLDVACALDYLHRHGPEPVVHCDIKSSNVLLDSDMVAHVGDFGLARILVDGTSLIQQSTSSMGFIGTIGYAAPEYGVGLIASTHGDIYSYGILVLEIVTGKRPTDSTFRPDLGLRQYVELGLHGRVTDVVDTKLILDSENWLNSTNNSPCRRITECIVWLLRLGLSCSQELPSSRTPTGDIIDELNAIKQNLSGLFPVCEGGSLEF
# [2] = molecular target: EFR::GFP (full-length Arabidopsis EFR with a carboxyl-terminal GFP fusion, transgenic rice) (Arabidopsis) (UniProt C0LGT6)
substance,measurement,setting,value
elf18Xoo,EC50 of ROS production in mature rice leaves (dose response curve),[1],0.4 nM
same,EC50 of ROS production in mature rice leaves (dose response curve),[2],0.3 nM
